Data as given in PubChem BioAssay AID504761 (Drosophila RNAi Screening Center, 2011)
The screen tested about 22,000 reagents; below is an unselected part of those with a known target gene and a result. In the full data, 116 (0.52%) got an active call. 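Calls depend on retest data that are not deposited; infection was ranked per plate without normalising between plates; the unit of the infection score is not given.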 Raw values are not corrected between plates. Further read-outs or replicates are left out here. Reagent sequences are not shown. Not given: the amount of reagent, the time to read-out.

- Purpose: 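Insect host genes that dengue virus relies on to spread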 (primary screen)
- System: D.Mel-2 cells from Drosophila
- Knock-down reagent: long dsRNA against Drosophila genes
- Challenge: infection with dengue virus type 2; dose and infection time not stated
- Measured: 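Per well on two replicate plates, imaging gave the percent of cells positive for viral envelope protein, ranked by infection, and a nuclear count of cells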
- Reading the numbers: infection score: higher = more virus-infected cells; cell count: higher = more cells in the well
- Hit rule: 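Very low infection ranking in both replicate wells (chance probability at most 0.065), then a retest showing infection dropped 1.5-fold or more at p below 0.05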
- Calls: active = confirmed: knock-down lowers infection; inactive = not picked or not confirmed

btl [DRSC11331] scored infection score, replicate 1 = 0.66; cell count, replicate 1 = 6180; inactive.
After knock-down of CG14763 [DRSC06497], the record shows infection score, replicate 1 = 10.4; cell count, replicate 1 = 5903; inactive.
Silencing of CG14763 [DRSC25479] resulted in: infection score, replicate 1 = 12; cell count, replicate 1 = 5618; inactive.
Against CG32833 [DRSC04596], the values are infection score, replicate 1 = 11.4; cell count, replicate 1 = 6176; inactive.
For CG30268 [DRSC21983], the values are infection score, replicate 1 = 2.29; cell count, replicate 1 = 6841; inactive.
Ntmt [DRSC06624] scored infection score, replicate 1 = 1.88; cell count, replicate 1 = 6387; inactive.
Ntmt [DRSC28647] scored infection score, replicate 1 = 2.07; cell count, replicate 1 = 823; inactive.
After knock-down of Dera [DRSC07207], the screen gave infection score, replicate 1 = 6.72; cell count, replicate 1 = 5829; inactive.
With knock-down of Dera [DRSC21336] the results were infection score, replicate 1 = 2.93; cell count, replicate 1 = 6522; inactive.
With knock-down of Dera [DRSC26996], the screen gave infection score, replicate 1 = 4.99; cell count, replicate 1 = 6478; inactive.
After knock-down of CG32280 [DRSC08024] the results were infection score, replicate 1 = 1.32; cell count, replicate 1 = 6135; inactive.
After knock-down of ND-PDSW [DRSC00715], the record shows infection score, replicate 1 = 0.7; cell count, replicate 1 = 6153; active.
Silencing of CG7423 [DRSC20044] came out at: infection score, replicate 1 = 5.08; cell count, replicate 1 = 6261; inactive.
Ubc10 [DRSC07568] gave infection score, replicate 1 = 15.3; cell count, replicate 1 = 6217; inactive.
Depletion of Ubc10 [DRSC23795] resulted in: infection score, replicate 1 = 3.34; cell count, replicate 1 = 5600; inactive.
Against CG12374 [DRSC06143], the entry reads infection score, replicate 1 = 22.1; cell count, replicate 1 = 5922; inactive.
Silencing of ND-SGDH [DRSC11102] gave: infection score, replicate 1 = 2.65; cell count, replicate 1 = 6464; inactive.
Knock-down of CG11426 [DRSC11658] gave: infection score, replicate 1 = 6.23; cell count, replicate 1 = 6647; inactive.
Against CG11426 [DRSC27815] the deposit lists infection score, replicate 1 = 1.89; cell count, replicate 1 = 6628; inactive.
Against CG31219 [DRSC15140], the values are infection score, replicate 1 = 5.09; cell count, replicate 1 = 6922; inactive.
After knock-down of Listericin [DRSC07334], the screen gave infection score, replicate 1 = 3.71; cell count, replicate 1 = 6821; inactive.
Against Listericin [DRSC24374], the entry reads infection score, replicate 1 = 11.3; cell count, replicate 1 = 6320; inactive.
After knock-down of ATbp [DRSC20906], the record shows infection score, replicate 1 = 2.43; cell count, replicate 1 = 4847; inactive.
Depletion of ATbp [DRSC29661] came out at: infection score, replicate 1 = 11.2; cell count, replicate 1 = 1315; inactive.
For SIFa [DRSC04480], the entry reads infection score, replicate 1 = 6.55; cell count, replicate 1 = 5953; inactive.
After knock-down of Or42b [DRSC04913], the screen gave infection score, replicate 1 = 12.3; cell count, replicate 1 = 5753; inactive.
After knock-down of Or42b [DRSC27273], the screen gave infection score, replicate 1 = 5.65; cell count, replicate 1 = 6651; inactive.

2 entries from above, arranged by “infection score, replicate 1”, high to low.
Or42b [DRSC04913] — infection score, replicate 1: 12.3; cell count, replicate 1: 5753; Call: inactive
SIFa [DRSC04480] — infection score, replicate 1: 6.55; cell count, replicate 1: 5953; Call: inactive
